Reference: US8686113B2 (priority 2009, dated 2014)

Tests used:
Format in all cases: cell-based
M. luteus 10240 = assay: Confocal laser scanning microscopy, bacteria; settings: 30 μmol/L, TAMRA quench, incubation for 1 h
HeLa cells = assay: Fluorescence microscopy of labeled peptides; settings: 40 μmol/L, 2 h
E. coli BL21 A1 = assay: Confocal laser scanning microscopy, bacteria; settings: 30 μmol/L, TAMRA quench; for internalization in E. coli: time not stated
SH-SY5Y cells = assay: Fluorescence microscopy of labeled peptides; settings: 40 μmol/L, 2 h

For “(CF-RQIKIWFQNRRMKWKKC-OH)2 [SEQ ID NO. 104]”, which “internalization (fluorescence) in M. luteus” value (M. luteus 10240) is on record?
The value was “enters Gram-positive M. luteus cells”.

For “CF-RQIKIWFQNRRMEWKKC-(CH2CO-VDKPPYLPRPRPPRRIYNR-NH2)-OH [SEQ ID NO. 102]”, which “internalization (fluorescence) in HeLa cells” value (HeLa cells) is on record?
Its value is “strong fluorescence in the cell interior”.

“CF-RQIKIWFQNRRMKWKKC-(CH2CO-GKPRPYSPRPTSHPRPIRV-OH)-OH [SEQ ID NO. 98]” was tested. Which “internalization (fluorescence) in HeLa cells” value (HeLa cells) did it give?
Its value is “internalize”.

Which “internalization (fluorescence) in HeLa cells” value (HeLa cells) does the source give for “CF-RQIKIWFQNRRMKWKKC-(CH2CO-GNNRPVYIPQPRPPHPRL-OH)-OH [SEQ ID NO. 96]” here?
The value was “internalize”.

Which “internalization in E. coli” value (E. coli BL21 A1) does the source give for “H-CFGKPRPYSPRPTSHPRPIRV-OH [SEQ ID NO. 90, reference compound]” here?
Its value is “internalize in E. coli”.

What about the “internalization (fluorescence) in HeLa cells” value (HeLa cells) of the same substance?
The value was “no internalization”.

What about the “internalization (fluorescence) in SH-SY5Y cells” value (SH-SY5Y cells) of the same substance?
The value was “no internalization”.

How did the “internalization in E. coli” value (E. coli BL21 A1) turn out when “H-CFGNNRPVYIPQPRPPHPRL-OH [SEQ ID NO. 88, reference compound]” was run?
Its value is “internalize in E. coli”.

And the “internalization (fluorescence) in HeLa cells” value (HeLa cells)?
The value was “no internalization”.

And the “internalization (fluorescence) in SH-SY5Y cells” value (SH-SY5Y cells)?
Its value is “no internalization”.

“H-CFVDKPPYLPRPRPPRRIYNR-NH2 [SEQ ID NO. 94]” was tested. Which “localization in E. coli after 50 min” value (E. coli BL21 A1; 20 min plus a further 30 min) did it give?
Its value is “accumulated inside the cell”.

What about the “localization in E. coli after 20 min” value (E. coli BL21 A1; incubation for 20 min) of the same substance?
The value was “accumulated in the bacterial membrane”.

And the “internalization (fluorescence) in HeLa cells” value (HeLa cells)?
The value was “fluorescence is not detectable”.

What about the “internalization (fluorescence) in SH-SY5Y cells” value (SH-SY5Y cells) of the same substance?
Its value is “fluorescence is not detectable”.
